Test results taken from PubChem BioAssay AID602399 (Sanford-Burnham Center for Chemical Genomics, 2012).
This is a selection; strong and weak results do not stand in their true shares. Some salts or complexes appear as unconnected parts, following the source record. Activity calls are given as the source filed them. Rule as the data show it: active = inhibition above about 26%; inactive = the rest.

tested on: Nicotinate-nucleotide adenylyltransferase NadD (Staphylococcus aureus N315); assay: inhibitors of S. aureus NadD, primary screen, biochemical, colorimetric, uHTS (AID 602399); conditions: purified NadD enzyme, colorimetric absorbance read-out; at 20 µM; stronger effect = higher value

Which inhibition does the source give for `CP(=O)(OCCOc1ccccc1)OCCOc1ccccc1` here?
The inhibition was inactive: -8.29%.

For `CP(=O)(Nc1ccc(Cl)cc1Cl)Oc1ccccc1` (stereo not given), which inhibition is on record?
Its inhibition is inactive: -5.13%.

Which inhibition does the source give for `CCCCCCCCCCCCCCCC1C[N+](C)(C)CCOP(C)(=O)O1` (stereo not given) here?
The inhibition was inactive: 6.02%.

For `O=C1C(O)=C([N+](=O)[O-])C(=O)C(O)=C1[N+](=O)[O-]`, which inhibition is on record?
The inhibition was inactive: 3.28%.

`Cc1cc(C)cc(OP(C)(=O)Nc2cccc(C(F)(F)F)c2)c1` (stereo not given) was tested. Which inhibition did it give?
Its inhibition is inactive: -3.91%.

`COc1ccc(OP(C)(=O)Nc2ccccc2Br)cc1` (stereo not given) was tested. Which inhibition did it give?
Its inhibition is inactive: -0.622%.

`COc1ccccc1OP(C)(=O)Nc1ccc(C)c(C)c1` (stereo not given) was tested. Which inhibition did it give?
Its inhibition is inactive: 5.13%.

With `CP(=O)(OC12CC3CC(CC(C3)C1)C2)OC12CC3CC(CC(C3)C1)C2` as the compound, how does the inhibition read?
The inhibition was inactive: -1.42%.

Which inhibition does the source give for `CCOC(=O)c1ccc(NP(C)(=O)Oc2ccc(Cl)cc2)cc1` (stereo not given) here?
The inhibition was inactive: -5.49%.

For `CP(=O)(Nc1ccc(Cl)cc1)Oc1ccc(F)cc1` (stereo not given), which inhibition is on record?
The inhibition was inactive: 3.19%.

How did the inhibition turn out when `CC(C)(C)c1ccc(OP(C)(=O)O)cc1` was run?
The inhibition was inactive: 3.79%.

Which inhibition does the source give for `COc1ccccc1OP(C)(=O)Nc1ccccc1Br` (stereo not given) here?
Its inhibition is inactive: -1.22%.

For `CN(C)C(=O)c1c([N+](=O)[O-])cc([N+](=O)[O-])cc1[N+](=O)[O-]`, which inhibition is on record?
Its inhibition is inactive: 8.57%.

Which inhibition does the source give for `CCN(CC)CC(O)COC(=O)C(O)(c1ccccc1)C1CCCCC1` (stereo not given) here?
Its inhibition is inactive: -1.03%.

With `COc1ccc(OP(C)(=O)Nc2ccc(Br)cc2)cc1` (stereo not given) as the compound, how does the inhibition read?
The inhibition was inactive: -0.896%.

Which inhibition does the source give for `CP(=O)(Oc1ccccc1)N1CCOC1=O` (stereo not given) here?
Its inhibition is inactive: 2.61%.

`CCc1ccc(OP(C)(=O)Nc2cccnc2)cc1` (stereo not given) was tested. Which inhibition did it give?
Its inhibition is inactive: 1.69%.

Which inhibition does the source give for `COc1ccccc1OP(C)(=O)Nc1c(C)n(C)n(-c2ccccc2)c1=O` (stereo not given) here?
The inhibition was inactive: -0.792%.

How did the inhibition turn out when `O=C(OCCCN1CCCC1)C(O)(c1ccccc1)C1CCCCC1` (stereo not given) was run?
The inhibition was inactive: -8.29%.

`CP(=O)(Nc1ccc2c(c1)OCCO2)Oc1ccccc1` (stereo not given) was tested. Which inhibition did it give?
Its inhibition is inactive: 0.0902%.

How did the inhibition turn out when `O=[N+]([O-])c1cc([N+](=O)[O-])c(C(F)(F)F)c([N+](=O)[O-])c1O` was run?
The inhibition was inactive: 1.59%.

With `Cc1ccccc1NP(C)(=O)Nc1ccccc1C` as the compound, how does the inhibition read?
The inhibition was inactive: 2.04%.

How did the inhibition turn out when `CP(=O)(Nc1ccc(SC(F)(F)F)cc1)Oc1ccc(F)cc1` (stereo not given) was run?
Its inhibition is inactive: -4.83%.

Which inhibition does the source give for `CCOP(C)(=S)SCC(=O)NC(C)(CC)C(=O)O` (stereo not given) here?
The inhibition was inactive: 1.84%.

Which inhibition does the source give for `Cc1cc(-c2cccc3ccccc23)c(C)cn1.O=[N+]([O-])c1cc([N+](=O)[O-])c(O)c([N+](=O)[O-])c1` here?
Its inhibition is inactive: -5.11%.

`O=[N+]([O-])c1cc([N+](=O)[O-])c(NCC2CCS(=O)(=O)C2)c([N+](=O)[O-])c1` (stereo not given) was tested. Which inhibition did it give?
The inhibition was inactive: -2.96%.

Which inhibition does the source give for `O=[N+]([O-])c1ccc(OP2(=O)COCCO2)cc1` (stereo not given) here?
The inhibition was inactive: -4.83%.

How did the inhibition turn out when `Cc1c(C(c2ccc3c(c2)OCO3)c2c(C)n(C)n(-c3ccccc3)c2=O)c(=O)n(-c2ccccc2)n1C.O=[N+]([O-])c1cc([N+](=O)[O-])c(O)c([N+](=O)[O-])c1` was run?
Its inhibition is inactive: 2.31%.

With `COc1ccc(OP(C)(=O)Nc2cccc(Br)c2)cc1` (stereo not given) as the compound, how does the inhibition read?
Its inhibition is inactive: 4.45%.

Which inhibition does the source give for `COc1ccc(NP(C)(=O)Oc2ccccc2OC)cc1` (stereo not given) here?
Its inhibition is inactive: -3.21%.

With `CN(C)CCOC(=O)C(O)(c1ccccc1)C1CCCCC1` (stereo not given) as the compound, how does the inhibition read?
Its inhibition is inactive: -2.55%.

For `CCN(CC)CCCOC(=O)C(O)(c1ccccc1)C1CCCCC1` (stereo not given), which inhibition is on record?
Its inhibition is inactive: -8.72%.

For `Cc1c([N+](=O)[O-])cc([N+](=O)[O-])c(Br)c1[N+](=O)[O-]`, which inhibition is on record?
The inhibition was inactive: 3.9%.

With `O=[N+]([O-])c1cc([N+](=O)[O-])c(OC2CCCCC2O)c([N+](=O)[O-])c1` (stereo not given) as the compound, how does the inhibition read?
Its inhibition is inactive: -0.443%.

`CCCCCOc1ccc(NP(C)(=O)Oc2ccc(Cl)cc2Cl)cc1` (stereo not given) was tested. Which inhibition did it give?
Its inhibition is inactive: 4.66%.

Which inhibition does the source give for `CP(=O)(Nc1ccccc1)Oc1ccc(F)cc1` (stereo not given) here?
The inhibition was inactive: 1.68%.

Which inhibition does the source give for `CCN(CC)CCCNc1ccccc1[N+](=O)[O-].O=[N+]([O-])c1cc([N+](=O)[O-])c(O)c([N+](=O)[O-])c1` here?
Its inhibition is inactive: 7.08%.

How did the inhibition turn out when `COc1ccc(OP(C)(=O)Nc2ccc(SC(F)(F)F)cc2)cc1` (stereo not given) was run?
Its inhibition is inactive: -2.65%.

Which inhibition does the source give for `CCOC(=O)c1ccc(NP(C)(=O)Oc2ccc(F)cc2)cc1` (stereo not given) here?
The inhibition was inactive: -4.63%.

For `O=C(OCCN1CCN(CCOCc2ccccc2)CC1)C(O)(c1ccccc1)c1ccccc1`, which inhibition is on record?
Its inhibition is inactive: -6.06%.

For `O=C(OC1CN2CCC1CC2)c1ccc([N+](=O)[O-])cc1` (stereo not given), which inhibition is on record?
The inhibition was inactive: 7.45%.

Which inhibition does the source give for `COc1ccc2c(c1O)-c1c(O)c(OC)cc3c1[C@H](C2)[N+](C)(C)CC3.O=[N+]([O-])c1cc([N+](=O)[O-])c([O-])c([N+](=O)[O-])c1[O-]` here?
Its inhibition is inactive: -0.412%.

Which inhibition does the source give for `O=[N+]([O-])c1cc([N+](=O)[O-])c(Nc2ccc(Cl)cc2)c([N+](=O)[O-])c1` here?
Its inhibition is inactive: -3.04%.

How did the inhibition turn out when `CC(C)c1ccc(OP(C)(=O)Nc2ccc(SC(F)(F)F)cc2)cc1` (stereo not given) was run?
Its inhibition is inactive: -2.15%.

For `CP(=O)(Nc1ccccc1F)Oc1ccccc1` (stereo not given), which inhibition is on record?
Its inhibition is inactive: 1.47%.
